Results are given as percent effect. How 0% and 100% were set is not recorded. Most values in the screen are low, and negative values occur. The entries come from a sample that favours strong results. A dash means the value is not listed here; it may have been measured.

A: 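Phenotypic screen: M. tuberculosis growth, cholesterol and DPPC medium, 4 days; the read-out is not stated. Compounds at 500 µM. The record gives no direction; compounds that gave an IC50 in retests scored well above the rest, so higher reads as more growth inhibition. About 18,000 compounds were tested under these conditions; 5% (about 900) showed 50% or more at least once.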
B: 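Phenotypic screen: M. tuberculosis growth, glucose 7H9 medium, 3 days; the read-out is not stated. Compounds at 500 µM. The record gives no direction; compounds that gave an IC50 in retests scored well above the rest, so higher reads as more growth inhibition. About 18,000 compounds were tested under these conditions; 7.9% (about 1,400) showed 50% or more at least once.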

- Cc1nc(CN2CCC[C@H]2C(=O)N2CCOCC2)cs1 | A: -14.69%
- CC(C)Sc1nnc(-c2cccnc2)o1 | A: 69.45%; B: 67.65%
- N#CCC(=O)C1CCCOC1 (stereo unspecified) | B: -12.24%
- CCC(C)N(CCOC)Cc1cc(=O)n(C)c(=O)n1C (stereo unspecified) | B: 8.889%
- O=C1NCCc2c(F)cc(Br)cc21 | B: 32.01%
- NCC(O)c1ccc(Cl)s1 (stereo unspecified) | A: 67.59%; B: 64.65%
- N[C@@H]1C[C@H]1c1ccc(F)cc1 | A: 16.8%
- CCN1CCC(NC(=O)c2ccccc2OC)CC1 | A: 14.2%
- O=C1CCN(S(=O)(=O)N2CCCCC2)CCN1 | A: 3.139%
- O=C(NCC1CCCO1)c1n[nH]c2c1CCCC2 (stereo unspecified) | A: 10.19%
- O=C(CCNC(=O)c1ccccc1F)Nc1nccs1 | B: -15.58%
- CC(C)c1nc(CN2CCn3ccnc3C2)no1 | B: 10.3%
- COCC(C)NC(=O)c1cccc(NS(C)(=O)=O)c1 (stereo unspecified) | B: 1.675%
- C1CC(CNC2CC2)CO1 (stereo unspecified) | B: -5.82%
- CN1CCN(c2cccnc2)CC1 | B: -1.978%
- CN1CCC(NC(=O)c2cc(C(F)(F)F)nn2C)CC1 | A: 16.73%
- CC(CO)NS(=O)(=O)c1cc(N(C)C)ccc1Br (stereo unspecified) | A: 22.08%; B: 38.39%
- CS(=O)(=O)N1CCOc2ncccc21 | B: -3.525%
- O=C(NCCO)c1ccc(-c2ccccc2)cc1 | A: 7.412%; B: 10.65%
- CC1(C(=O)NCC(CO)Cc2cccs2)CCNCC1 (stereo unspecified) | A: 0.8887%; B: 8.209%
- COC(C)CCC(=O)NCc1cn2ccccc2n1 (stereo unspecified) | B: 16.67%
- CC1(C#N)CCN(C(=O)CCc2cccc(O)c2)CC1 | B: 7.802%
- NCC1CCCN(C(N)=O)C1 (stereo unspecified) | B: 1.269%
- Cc1ccc(C(=O)NCCNS(=O)(=O)C(C)C)cc1F | B: 63.72%
- CC(C)C(=O)NCc1ccnc(N2CCOCC2)c1 | B: 1.835%
- NC(=O)C1(c2ccccc2F)CCCC1 | A: 1.655%; B: 3.201%
- NC(CN1CCOCC1)c1ccccc1 (stereo unspecified) | A: 31.44%; B: 56.09%
- NCC(CO)Cc1cccc(Br)c1 (stereo unspecified) | B: 49.36%
- Cc1cnccc1NC(=O)NCCCn1ccnc1 | B: 2.695%
- CC(=O)NCCNC(=O)c1oc(Br)cc1C | B: 14.57%
- CN(CCN)S(=O)(=O)c1cccs1 | B: 7.313%
- CCc1ncc(C(=O)NCCNc2ncccn2)s1 | B: 20.84%
- NCCc1ncccc1F | B: 1.658%

Some entries from above, unchanged:

structure	A	B
NC(CN1CCOCC1)c1ccccc1 (stereo unspecified)	31.44	56.09
Cc1ccc(C(=O)NCCNS(=O)(=O)C(C)C)cc1F	-	63.72
O=C1NCCc2c(F)cc(Br)cc21	-	32.01

Data taken from ChEMBL document CHEMBL3988442, “University of Dundee, Small-Polar-MMV Screening Library” (2021).